Data source: PubChem BioAssay AID1259414 (Drosophila RNAi Screening Center, 2018)
In all, the deposit lists about 24,000 reagents; below is an unselected part of those with a known target gene and a result. Over the whole deposit, about 1,210 (5%) are marked active. 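Inactive calls also include excluded dsRNAs with several or no targets, genes unexpressed in JW18, and well A1, regardless of score.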 Entries without a mark were called inactive. Names joined by + are all predicted targets of the reagent.

- Test: 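Genome-wide screen for host control of endosymbiont load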 (primary screen)
- Cell system: Drosophila JW18 cells infected with Wolbachia
- Reagents: long dsRNA against Drosophila genes, 0.25 µg dsRNA per well of a 384-well plate
- Time to read-out: 5 days
- Challenge: cells persistently infected with Wolbachia before knock-down; no added drug
- Measurement: 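Automated imaging of bacterial rRNA staining divided by host cell count, reported as plate-normalised robust z-score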
- Direction: Wolbachia per cell robust z: higher = more Wolbachia per host cell than the plate typical
- Hit rule: 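Hit when robust z is 1.5 or more, or -1.5 or less, in at least two of three replicates; excludes dsRNAs with several or no targets, genes not expressed in JW18 and well A1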

gene knocked down	dsRNA	Wolbachia per cell robust z, rep 1	Wolbachia per cell robust z, rep 2	Wolbachia per cell robust z, rep 3
CG6230	DRSC01989	1.17	0.678	-0.553
CG12289	DRSC09874	0.838	0.937	-2.29
CheB38c (Chemosensory protein B 38c)	DRSC02389	0.41	0.947	0.841
nompB (no mechanoreceptor potential B)	DRSC03701	-0.124	-0.236	0.957
nompB (no mechanoreceptor potential B)	DRSC03731	0.78	1.05	1.03
mv (mauve)	DRSC08208	0.335	0.195	0.273
mv (mauve)	DRSC08570	-0.0353	0.0326	0.282
mv (mauve)	DRSC28733	0.62	0.998	0.738
Gr92a (Gustatory receptor 92a)	DRSC21631	0.258	-0.725	-0.808
CG16837	DRSC04283	-0.234	-1.12	0.396
CG16837	DRSC26178	-1.52	-0.644	-0.794
Mov10 (Mov10 RISC complex RNA helicase)	DRSC07012	-1.87	-0.595	1.8
CG34448	DRSC26596	0.414	1.09	-0.305
CG34448	DRSC41472	0.433	0.13	-0.882
CG15537	DRSC15073	-3.47	0.313	0.971
CG15537	DRSC25589	-0.0416	1.12	0.721
Lcp65Ab2 + Lcp65Ab1	DRSC10340	1.67	0.337	-4.07
CG11726	DRSC09858	-2.03	0.461	1.24
Pgcl (Pepsinogen C-like)	DRSC18815	-3.19	1.16	0.98
mthl6 (methuselah-like 6)	DRSC10234	0.955	0.00645	0.00378
Vps51 (Vacuolar protein sorting 51)	DRSC06519	-1.03	-1.56	-0.863
CG9356	DRSC16476	-2.6 (active)	0.808	-4.57
BomT2 (Bomanin Tailed 2)	DRSC06631	0.517	-3.58	-0.321
BomT2 (Bomanin Tailed 2)	DRSC41501	-1.2	0.126	0.323
CG9222	DRSC03158	0.636	-10.4	-4.15
Jon99Ciii (Jonah 99Ciii)	DRSC16859	-0.275	1.19	1.27
Blos4	DRSC10151	-0.162	0.851	0.17
Blos4	DRSC27533	-0.0685	2.06	-0.17
l(3)07882 (lethal (3) 07882)	DRSC15882	-0.0457	-0.679	-0.255
CG42718	DRSC41381	-1.66	-0.0551	-2.85
CG31139	DRSC21393	1.01	1.13	0.691
CG4676	DRSC06879	0.492	0.0747	0.918
Mayo	DRSC14300	-1.12	-1.72	0.218
CG10086	DRSC14183	-4.67	-0.0298	0.428
Xpc (Xeroderma pigmentosum, complementation group C)	DRSC07654	-2.63	0.849	-0.839
CG12012	DRSC08220	-0.173	-2.69	0.614
CG17300	DRSC10260	0.481	-0.59	0.423
CG17300	DRSC28904	0.333	1.11	0.313
dbo (diablo)	DRSC11339	-1.51	-0.156	0.99
CG34051	DRSC01739	-0.73 (active)	-5.48	-2.35
CG17147	DRSC10249	-1.07	-0.232	-7.49
CG17147	DRSC29813	0.471	-0.58	-0.309
CG6271	DRSC16006	0.428	0.479	0.203
CG6271	DRSC25865	-0.703	-0.0705	-3
ens (ensconsin)	DRSC08454	0.458	-0.541	-0.905
ens (ensconsin)	DRSC25507	1.67	-0.841	0.546
CG3085	DRSC04335	-5.79	0.21	0.373
hec (hector)	DRSC19895	0.194	-1.34	-0.283
CG3777	DRSC18489	-0.583	-1.6	-1.14
CG3777	DRSC24661	0.933	-0.128	0.236
Picot	DRSC07508	-2.58	-0.314	-1.09
Picot	DRSC24256	0.0844	-1.08	0.891
Taf8 (TBP-associated factor 8)	DRSC20363	-0.0321	0.207	0.215
l(2)dtl (lethal-(2)-denticleless)	DRSC04697	-3.89	-0.709	0.968
l(2)dtl (lethal-(2)-denticleless)	DRSC26021	-0.17	1.09	0.441
mRpL36 (mitochondrial ribosomal protein L36)	DRSC10337	-0.722	-2.35	2.07
PH4alphaNE1 (prolyl-4-hydroxylase-alpha NE1)	DRSC16546	0.104	-0.636	0.00468
PH4alphaNE1 (prolyl-4-hydroxylase-alpha NE1)	DRSC26942	-0.042	0.33	1.76
WDY (WD40 Y)	DRSC21229	0.506	-0.9	0.4
WDY (WD40 Y)	DRSC38768	1.84	0.423	2.84
WDY (WD40 Y)	DRSC38774	1.46	-3.59	-1.15
WDY (WD40 Y)	DRSC38780	-4	-0.362	-3.66
lft (lowfat)	DRSC02236	0.0147	-6.1	-0.946
gcm (glial cells missing)	DRSC03536	-2.41	-0.175	-3.57
htl (heartless)	DRSC16968	0.318	-0.399	0.413
htl (heartless)	DRSC36668	-0.4	1.26	1.23
htl (heartless)	DRSC40656	-0.344	0.263	-0.0198
CG1233	DRSC08269	0.763	-0.414	0.229
CG1233	DRSC26110	-0.911	-1.39	-0.532
CG11356	DRSC19401	0.0245	0.801	-0.195
Sdb (SAXO downstream of blistered)	DRSC06272	-3.47	-0.822	0.243
Sdb (SAXO downstream of blistered)	DRSC06273	-1.32	-4.03	0.589
Sdb (SAXO downstream of blistered)	DRSC07155	-0.766	-0.666	-0.126
CG33703	DRSC37834	0.172	-1.3	-0.869
CG9072	DRSC20147	-0.79	-0.432	-4.72
tfc (triforce)	DRSC07953	0.555	0.784	1.49
tfc (triforce)	DRSC07954	2.02	0.891	1.01
tfc (triforce)	DRSC08626	0.614	-0.487	0.728
tfc (triforce)	DRSC21704	0.0574	-1.27	0.0474
tfc (triforce)	DRSC23750	1.11	1.02	1.17
CG2129	DRSC18209	-0.552	0.748	-1.13
CG2129	DRSC24934	-1.34	-1.94	-1.08
cert (ceramide transfer protein)	DRSC09674	1.18	0.27	0.263
fog (folded gastrulation)	DRSC20646	-1.98	0.62	0.418
RhoGEF4 (Rho guanine nucleotide exchange factor 4)	DRSC11011	0.469	-0.215	-1.14
RhoGEF4 (Rho guanine nucleotide exchange factor 4)	DRSC26016	-0.0553	0.347	0.0116
Cyp4e2 (Cytochrome P450 4e2)	DRSC07371	-0.272	-2.71	-0.368

Entries listed above marked active, once more:
gene knocked down	dsRNA	Wolbachia per cell robust z, rep 1	Wolbachia per cell robust z, rep 2	Wolbachia per cell robust z, rep 3
CG9356	DRSC16476	-2.6 (active)	0.808	-4.57
CG34051	DRSC01739	-0.73 (active)	-5.48	-2.35
